Reference: article PMC4464171
Construct, isoform or probe ends are uncertain for at least one entry.

Key:
[1] = target: HpArsR-P (phosphorylated ArsR) (Helicobacter pylori J99) (UniProt Q9ZMR6); assay: fluorescence anisotropy (direct titration); conditions: 5 mM MgCl2, phosphorylated ArsR; 50 mM Tris-HCl, 5 mM MgCl2, 100 mM KCl, 5 mM TCEP, pH 7.5, 25 C; 15 nM PureA-F (direct) or 5 nM PureA-F + 1.5 uM HpArsR-P (competition); recombinant protein; protein details: N-terminal His6 (pQE3)
[2] = target: HpArsR-P (phosphorylated ArsR) (Helicobacter pylori J99) (UniProt Q9ZMR6); assay: fluorescence anisotropy competition; conditions: 5 mM MgCl2, competitor vs 5 nM PureA-F, 1.5 uM HpArsR-P; 50 mM Tris-HCl, 5 mM MgCl2, 100 mM KCl, 5 mM TCEP, pH 7.5, 25 C; 15 nM PureA-F (direct) or 5 nM PureA-F + 1.5 uM HpArsR-P (competition); recombinant protein; protein details: N-terminal His6 (pQE3); label: none (competitor)

Sequence | Kd [1] | Kd [2]
CTTCAAAGATATAACACTAATTCATTTTAAATAATAATTAGTTAATGA (double strand) [PureA WT/WT (PureA-F)] | 17 nM | 
CTTCAAAGATATAACACTAATTCATTTTACCCCCCCATTAGTTAATGA (double strand) [PureA WT/C] |  | 24 nM
CTTCAAAGATACCCCCCCAATTCATTTTACCCCCCCATTAGTTAATGA (double strand) [PureA C/C] |  | 23 nM
CTTCAAAGATACCCCCCCAATTCATTTTAAATAATAATTAGTTAATGA (double strand) [PureA C/WT] |  | 20 nM
